This assay has as its target SARS-CoV Spike (SARS-CoV) (UniProt P59594). In words: SPR.

The substance S309 returned a Kd of 1.95 pM.

Source of the values: patent publication US20240343781A1.
